# Results published in patent EP4563146A1 (IRBM S.P.A., priority 2023, dated 2025).
# Target: DEN2V NS2B-G4SG4-NS3 serine protease (Dengue virus type 2, UniProt Q91H74)
# Assay: DEN2V protease inhibition assay
# Details: read-out: Dengue 2 - NS3 protease
substance,measurement,value
"((3-Cyclopropyl-5-(2-(phenylsulfonyl)-acetamido)phenyl)carbamoyl)(3-((1R,4R)-4-((dimethylamino)methyl)cyclohexyl)-1,2,3-oxadiazol-3-ium-5-yl)amide [Example 150]",pIC50,6.00 to 7.00

# pIC50: −log10 of the molar value.
